Toxic doses and inconclusive results are not listed. How the source made its calls: active means survival T/C of 150% or more; inactive means T/C below 125% in these data.
System: BDF1 mice, P388 leukemia ip, median survival T/C
Assay: NCI In Vivo Anticancer Drug Screen. Data for tumor model P388 Leukemia (intraperitoneal) in B6D2F1 (BDF1) mice
Conditions: endpoint: median survival time, schedule: Q01DX009 (ip), vehicle: saline with Tween-80, higher = longer survival
Procedure: The antitumor activity of compounds was measured in mice bearing transplantable tumors. Survival or tumor size were measured and the results are expressed as the measurement made in the treated group (T) divided by the measurement made in the vehicle treated control group (C). The tumor model used in this assay is P388 Leukemia (intraperitoneal) in B6D2F1 (BDF1) mice

Measured: T/C

[Fe].[c-]1[c-][c-][cH-][c-]1.[c-]1[c-][c-][cH-][c-]1
inactive: dose: 25.0 mg/kg/injection 90 % of control | dose: 50.0 mg/kg/injection 106 % of control | dose: 100.0 mg/kg/injection 100 % of control

From PubChem BioAssay AID328 (DTP/NCI, 2004)
